Results of unrelated studies side by side (data: NIAID ChemDB).

Common to all: tests in culture; species: HIV-1

Rows are shuffled and stem from different studies.

NOCc1ccccc1Cl ; cells: MT-4 ; strain or isolate: IIIB ; read-out: EC50 ; method: cytopathic effect / MTT ; value: 13.8 µg/mL
CC(C)CN(C[C@@H](O)[C@H](Cc1ccccc1)NC(=O)O[C@H]1CCOC1)S(=O)(=O)c1ccc(N)cc1 ; cells: MT-2 ; strain or isolate: NL4-3 Laboratory clone ; read-out: EC50 ; method: cytopathic effect / MTT ; value: 0.023 µM
NC1=Nc2c(ncn2CCCCCP(=O)(O)O)C(=O)C1 ; cells: C8166 ; strain or isolate: RF ; read-out: EC50 ; method: p24 ; value: >320 µM
Cc1cn([C@H]2C[C@H](N=[N+]=[N-])[C@@H](COP(=O)(OCCSSCCO)OCCSSCCO)O2)c(=O)[nH]c1=O ; cells: CEM + CEM-SS ; strain or isolate: LAI ; read-out: EC50 ; method: RT activity ; value: 0.0005 µM
COC(=O)CCCCCNC(=O)/C=C/c1cn([C@H]2C=C[C@@H](CO)O2)c(=O)[nH]c1=O ; cells: CEM + CEM-SS ; strain or isolate: LAI ; read-out: EC50 ; method: RT activity ; value: >100 µM
O=C(NCc1ccc(F)cc1)c1nc(N2CCCCS2(=O)=O)c2cccnc2c1O ; mutations: INTG-T66I S153Y ; read-out: EC50 ; method: p24 ; value: 0.02 µM
CN(C[C@@H](CCN1CCC2(CC1)CS(=O)(=O)c1ccccc12)c1cccc(Cl)c1)S(=O)(=O)c1ccccc1 ; cells: PBMC ; strain or isolate: M-tropic YU-2 ; read-out: EC95 ; method: p24 / antigen ; value: 3 µM
COc1ccc2c(c1)N(C(=O)OC(C)C)[C@@H](CSC)C(=S)N2 ; mutations: RT-V106A ; cells: CEM ; strain or isolate: IIIB ; read-out: EC50 ; method: p24 ; value: 0.002 µg/mL
Cc1cn([C@@H]2O[C@H](CO[Si](C)(C)C(C)(C)C)C3(OS(=O)(=O)C=C3N)[C@H]2O[Si](C)(C)C(C)(C)C)c(=O)n(C)c1=O ; mutations: RT-E138K ; cells: MT-4 ; strain or isolate: IIIB ; read-out: EC50 ; method: cytopathic effect / MTT ; value: 1.846 µM
Cc1c(O)cccc1C(=O)N[C@@H](CSc1ccccc1)[C@H](O)CN1C[C@H]2CCCC[C@H]2C[C@H]1C(=O)NC(C)(C)C ; mutations: PR-L63P ; cells: PBMC ; strain or isolate: ERS104PRE(PR-L63P) Clinical isolate ; read-out: EC50 ; method: p24 ; value: 0.023 µM
Cc1ccnc2c1NC(=O)c1cccnc1N2C1CC1 ; mutations: RT-G190E ; cells: CEM ; strain or isolate: IIIB ; read-out: EC50 ; method: p24 ; value: >50 µg/mL
COc1ccc2c(c1)N(C(=O)OC(C)C)[C@@H](CSC)C(=S)N2 ; mutations: RT-A98S ; cells: MT-4 ; strain or isolate: Recombinant mutant ; read-out: EC50 ; method: cytopathic effect / MTT ; value: 0.00066 µM
CN(C[C@@H](CCN1CCC2(CC1)CS(=O)c1ccccc12)c1cccc(Cl)c1)S(=O)(=O)c1ccccc1 ; cells: PBMC ; strain or isolate: M-tropic YU-2 ; read-out: EC50 ; method: p24 / antigen ; value: <0.8 µM
N#Cc1ccc(Nc2nc(Oc3ccc(-c4ccc(C#N)cc4)cc3[N+](=O)[O-])c3sccc3n2)cc1 ; mutations: L100I ; cells: MT-4 ; strain or isolate: IIIB ; read-out: EC50 ; method: MTT ; value: 0.018 µM
CC(C)(C)OC(=O)NCCCCCCNC(=O)/C=C/c1cn([C@H]2C=C[C@@H](CO)O2)c(=O)[nH]c1=O ; cells: CEM + CEM-SS ; strain or isolate: LAI ; read-out: EC50 ; method: RT activity ; value: 50 µM
N#Cc1ccc(Nc2nc(Oc3ccc(-c4ccc(C#N)cc4)cc3C(F)(F)F)c3sccc3n2)cc1 ; cells: MT-4 ; strain or isolate: IIIB ; read-out: EC50 ; method: MTT ; value: 0.0546 µM
NOCc1c(F)cccc1Cl ; cells: U-937 ; strain or isolate: IIIB ; read-out: EC50 ; method: p24 ; value: 1.9 µg/mL
N#Cc1ccc(Nc2nc(Oc3ccc(-c4ccc(C#N)cc4)cc3)c3sccc3n2)cc1 ; cells: MT-4 ; strain or isolate: IIIB ; read-out: EC50 ; method: MTT ; value: 0.0674 µM
CC(C)CN(C[C@@H](O)[C@H](Cc1ccccc1)NC(=O)O[C@H]1CCOC1)S(=O)(=O)c1ccc(N)cc1 ; mutations: L10I G48V I54V A71V I84V L90M SQV resistant ; cells: MT-4 ; strain or isolate: NL4-3 ; read-out: EC50 ; value: 0.435 µM
O=c1[nH]cnc2c1ncn2[C@H]1CC[C@@H](CO)O1 ; cells: MT-4 ; strain or isolate: LAI ; read-out: EC50 ; method: RT activity ; value: 11 µM
CCc1cc(NCc2nc3c(Cl)ccc(Cl)c3o2)c(=O)[nH]c1C ; cells: H9 ; strain or isolate: MN ; read-out: EC50 ; method: antigen ; value: 0.067 µM
Cc1ccccc1Cc1cccc(C(=O)CC(=O)C(=O)O)c1 ; mutations: INTG-T66I M154I ; read-out: EC50 ; method: p24 ; value: 0.3 µM
Nc1ncnc2c1ncn2CCOCP(=O)(O)O ; cells: PBMC ; strain or isolate: RF ; read-out: EC50 ; method: p24 ; value: 1 µM
Cc1cc(-c2ccc(C#N)cc2)cc(C)c1Oc1nc(Nc2ccc(C#N)cc2)nc2ccsc12 ; cells: MT-4 ; strain or isolate: RES056 ; read-out: EC50 ; method: MTT ; value: 0.1522 µM
CN(C[C@@H](CCN1CCC2(CC1)CS(=O)c1ccccc12)c1ccc(Cl)c(Cl)c1)S(=O)(=O)c1ccccc1 ; cells: PBMC ; strain or isolate: M-tropic YU-2 ; read-out: EC50 ; method: p24 / antigen ; value: <10 µM
CC(C)CN(C[C@@H](O)[C@H](Cc1ccccc1)NC(=O)O[C@H]1CO[C@H]2OCC(F)(F)[C@H]21)S(=O)(=O)c1ccc(N)cc1 ; cells: MT-2 ; strain or isolate: LAI ; read-out: EC50 ; method: MTT ; value: 0.003 µM
Cc1ccnc2c1NC(=O)c1cccnc1N2C1CC1 ; mutations: RT-E138A S162C E169D T200A L214F ; cells: MT-4 ; strain or isolate: HXB2 (RT E138A S162C E169D T200A L214F) Clinical isolate ; read-out: EC50 ; method: cytopathic effect / MTT ; value: 0.132 µM
CC(=O)SCCOP(=O)(OCCSC(C)=O)OC[C@@H]1CC[C@H](n2cnc3c(=O)[nH]cnc32)O1 ; cells: MT-4 ; strain or isolate: LAI ; read-out: EC50 ; method: RT activity ; value: 3.4 µM
CN(CC(CCN1CCC2(CC1)CS(=O)c1ccccc12)c1ccccc1)S(=O)(=O)c1ccccc1 ; cells: PBMC ; strain or isolate: M-tropic YU-2 ; read-out: EC95 ; method: p24 / antigen ; value: 0.8 µM
CC(C)(C)NC(=O)[C@@H]1C[C@@H]2CCCC[C@@H]2CN1C[C@@H](O)[C@H](Cc1ccccc1)NC(=O)[C@H](CC(N)=O)NC(=O)c1ccc2ccccc2n1 ; mutations: L10I K43T M46L I54V L63P A71V V82A L90M Q92K ; cells: PBMC ; strain or isolate: Clinical isolate ; read-out: EC50 ; value: 0.11 µM
Cc1cn([C@@H]2O[C@H](CO[Si](C)(C)C(C)(C)C)C3(OS(=O)(=O)C=C3N)[C@H]2O[Si](C)(C)C(C)(C)C)c(=O)n(C)c1=O ; mutations: RT-Y181C ; cells: CEM ; strain or isolate: IIIB ; read-out: EC50 ; method: p24 ; value: 2 µg/mL
C#C[C@]1(CO)O[C@@H](n2cnc3c(N)nc(F)nc32)C[C@@H]1O ; mutations: M41L ; cells: MT4-GFP ; strain or isolate: Clinical isolate ; read-out: EC50 ; method: fluorescence ; value: 0.0008 µM
CC(=O)SCCOP(=O)(OCCSC(C)=O)OC[C@@H]1CC[C@H](n2cc(C)c(=O)[nH]c2=O)O1 ; cells: CEM + CEM-SS ; strain or isolate: LAI ; read-out: EC50 ; method: RT activity ; value: 1.7 µM
Cc1occc1C(=S)Nc1ccc(Cl)c(/C=N/OC(C)(C)C)c1 ; mutations: RT-M184V ; cells: CEM ; strain or isolate: IIIB ; read-out: EC50 ; method: p24 ; value: 0.007 µg/mL
CC(C)=CCN1Cc2cc(Cl)cc3[nH]c(=S)n(c23)C[C@@H]1C ; mutations: RT-E138A S162C E169D T200A L214F ; cells: CEM ; strain or isolate: HXB2 (RT E138A S162C E169D T200A L214F) Clinical isolate ; read-out: EC50 ; method: syncytia ; value: 0.031 µM
CC(C)(C)NC(=O)[C@@H]1C[C@@H]2CCCC[C@@H]2CN1C[C@@H](O)[C@H](Cc1ccccc1)NC(=O)[C@H](CC(N)=O)NC(=O)c1ccc2ccccc2n1 ; mutations: PR-L10I K14R R41K M46L I54V L63P A71V V82A L90M I93L ; cells: PBMC ; strain or isolate: Clinical isolate ; read-out: EC50 ; method: p24 ; value: 0.19 µM
CC(=O)c1ccc(C)cc1NC(C(N)=O)c1c(Cl)cccc1Cl ; mutations: RT-E138K ; cells: MT-4 ; strain or isolate: IIIB ; read-out: EC50 ; method: cytopathic effect / MTT ; value: 0.132 µM
Cc1cc(S(N)(=O)=O)ccc1NC(=O)COc1ccc(Cl)cc1C(=O)c1cc(Cl)cc(C#N)c1 ; mutations: RT-G190E ; cells: MAGI ; strain or isolate: NNRTI-resistant (RT G190E) ; read-out: EC50 ; method: β-galactosidase ; value: 0.0007 µM
CC(C)=CCN1Cc2cccc3[nH]c(=S)n(c23)C[C@@H]1C ; cells: H9 ; strain or isolate: MN ; read-out: EC50 ; method: antigen ; value: 0.201 µM
CC(C)(C)NC(=O)[C@@H]1CN(Cc2cccnc2)CCN1C[C@@H](O)C[C@@H](Cc1ccccc1)C(=O)N[C@H]1c2ccccc2C[C@H]1O ; cells: PBMC ; strain or isolate: Ba-L Laboratory isolate ; read-out: EC50 ; method: p24 ; value: 0.017 µM
CC(C)c1cc2c(c(O)c1O)[C@@]1(C(=O)O)CCCC(C)(C)C1CC2 ; mutations: PR-L63P ; cells: PBMC ; strain or isolate: clinical isolate 1(ERS104pre WT X4) ; read-out: EC50 ; value: 0.018 µM
NOCc1ccc(Cl)cc1Cl ; cells: MT-4 ; strain or isolate: IIIB ; read-out: EC50 ; method: cytopathic effect / MTT ; value: 11.5 µg/mL
CC(=O)SCCOP(=O)(OCCSC(C)=O)OC[C@H]1O[C@@H](n2cc(C)c(=O)[nH]c2=O)C[C@@H]1N=[N+]=[N-] ; cells: CEM + CEM-SS ; strain or isolate: LAI ; read-out: EC50 ; method: RT activity ; value: 0.0048 µM
NC1=Nc2c(ncn2CCC/C=C/P(=O)(O)O)C(=O)C1 ; cells: PBMC ; strain or isolate: RF ; read-out: EC50 ; method: p24 ; value: 3.8 µM

ECn is the concentration giving n% inhibition of infection, replication or growth.